± gives the expanded uncertainty stated by the source.
What was measured:
[1] = 101.33 kPa, Liquid, Vibrating tube method
[2] = refractive index (Na D-line) (dimensionless); details: 101.33 kPa, Liquid, Standard Abbe refractometry

CCCC[n+]1ccccc1.O=S(=O)(F)[N-]S(=O)(=O)F [1-butylpyridinium bis(fluorosulfonyl)amide]
Details | mass density, [1] [kg/m3] | refractive index, [2]
283.15 K | 1381.9 ± 2.2 | 1.47569 ± 0.00064
288.15 K | 1377.7 ± 2.2 | 1.4742 ± 0.00064
293.15 K | 1373.6 ± 2.2 | 1.47271 ± 0.00064
298.15 K | 1369.4 ± 2.2 | 1.47123 ± 0.00064
303.15 K | 1365.2 ± 2.2 | 1.46975 ± 0.00064
308.15 K | 1361.1 ± 2.2 | 1.46828 ± 0.00064
313.15 K | 1356.9 ± 2.1 | 1.46683 ± 0.00064
318.15 K | 1352.8 ± 2.1 | 1.46537 ± 0.00064
323.15 K | 1348.6 ± 2.1 | 1.4639 ± 0.00064
328.15 K | 1344.5 ± 2.1 | 1.46247 ± 0.00063
333.15 K | 1340.4 ± 2.1 | 1.46103 ± 0.00063
338.15 K | 1336.3 ± 2.1 | 1.45963 ± 0.00063
343.15 K | 1332.2 ± 2.1 | 1.45823 ± 0.00063
348.15 K | 1328.1 ± 2 | 1.45677 ± 0.00063
353.15 K | 1324 ± 2 | 1.45536 ± 0.00063

CCn1cc[n+](C)c1.O=S(=O)(F)[N-]S(=O)(=O)F [1-ethyl-3-methyl-1H-imidazolium bis(fluorosulfonyl)amide]
Details | mass density, [1] [kg/m3] | refractive index, [2]
283.15 K | 1455.6 ± 2.5 | 1.45179 ± 0.00063
288.15 K | 1450.9 ± 2.5 | 1.45035 ± 0.00063
293.15 K | 1446.2 ± 2.4 | 1.44891 ± 0.00063
298.15 K | 1441.4 ± 2.4 | 1.44747 ± 0.00063
303.15 K | 1436.7 ± 2.4 | 1.44605 ± 0.00063
308.15 K | 1432.1 ± 2.4 | 1.44462 ± 0.00063
313.15 K | 1427.5 ± 2.4 | 1.4432 ± 0.00063
318.15 K | 1422.9 ± 2.4 | 1.44179 ± 0.00063
323.15 K | 1418.4 ± 2.4 | 1.44039 ± 0.00063
328.15 K | 1413.9 ± 2.3 | 1.43899 ± 0.00063
333.15 K | 1409.5 ± 2.3 | 1.43758 ± 0.00063
338.15 K | 1405.1 ± 2.3 | 1.43619 ± 0.00063
343.15 K | 1400.7 ± 2.3 | 1.43481 ± 0.00063
348.15 K | 1396.3 ± 2.3 | 1.43342 ± 0.00063
353.15 K | 1391.9 ± 2.3 | 1.43207 ± 0.00063

CC[n+]1cccc(C)c1.O=S(=O)(F)[N-]S(=O)(=O)F [1-ethyl-3-methylpyridinium bis(fluorosulfonyl)amide]
Details | mass density, [1] [kg/m3] | refractive index, [2]
283.15 K | 1420 ± 2.4 | 1.47636 ± 0.00064
288.15 K | 1415.7 ± 2.3 | 1.47489 ± 0.00064
293.15 K | 1411.4 ± 2.3 | 1.47341 ± 0.00064
298.15 K | 1407.1 ± 2.3 | 1.47194 ± 0.00064
303.15 K | 1402.9 ± 2.3 | 1.47048 ± 0.00064
308.15 K | 1398.6 ± 2.3 | 1.46897 ± 0.00064
313.15 K | 1394.3 ± 2.3 | 1.46754 ± 0.00063
318.15 K | 1390.1 ± 2.3 | 1.46611 ± 0.00063
323.15 K | 1385.8 ± 2.2 | 1.46466 ± 0.00064
328.15 K | 1381.6 ± 2.2 | 1.46322 ± 0.00063
333.15 K | 1377.4 ± 2.2 | 1.4618 ± 0.00063
338.15 K | 1373.1 ± 2.2 | 1.46036 ± 0.00063
343.15 K | 1368.9 ± 2.2 | 1.45899 ± 0.00063
348.15 K | 1364.7 ± 2.2 | 1.45757 ± 0.00063
353.15 K | 1360.5 ± 2.2 | 1.45612 ± 0.00064

CC[n+]1ccccc1.O=S(=O)(F)[N-]S(=O)(=O)F [1-ethylpyridinium bis(fluorosulfonyl)amide]
Details | mass density, [1] [kg/m3] | refractive index, [2]
283.15 K | 1471.9 ± 2.5 | 1.47477 ± 0.00064
288.15 K | 1467.5 ± 2.5 | 1.47331 ± 0.00064
293.15 K | 1463.1 ± 2.5 | 1.47185 ± 0.00064
298.15 K | 1458.7 ± 2.5 | 1.47038 ± 0.00064
303.15 K | 1454.3 ± 2.5 | 1.4689 ± 0.00064
308.15 K | 1449.9 ± 2.5 | 1.46745 ± 0.00063
313.15 K | 1445.5 ± 2.4 | 1.46602 ± 0.00063
318.15 K | 1441.1 ± 2.4 | 1.46458 ± 0.00063
323.15 K | 1436.7 ± 2.4 | 1.46315 ± 0.00063
328.15 K | 1432.4 ± 2.4 | 1.46174 ± 0.00063
333.15 K | 1428.1 ± 2.4 | 1.46032 ± 0.00063
338.15 K | 1423.7 ± 2.4 | 1.45895 ± 0.00063
343.15 K | 1419.4 ± 2.4 | 1.45754 ± 0.00063
348.15 K | 1415.1 ± 2.3 | 1.4561 ± 0.00063
353.15 K | 1410.8 ± 2.3 | 1.45476 ± 0.00063

CCCCCC[n+]1ccccc1.O=S(=O)(F)[N-]S(=O)(=O)F [1-hexylpyridinium bis(fluorosulfonyl)amide]
Details | mass density, [1] [kg/m3] | refractive index, [2]
283.15 K | 1313.7 ± 2 | 1.47548 ± 0.00064
288.15 K | 1309.8 ± 2 | 1.47398 ± 0.00064
293.15 K | 1305.8 ± 2 | 1.47248 ± 0.00064
298.15 K | 1301.9 ± 2 | 1.47098 ± 0.00064
303.15 K | 1297.9 ± 1.9 | 1.46948 ± 0.00064
308.15 K | 1294 ± 1.9 | 1.46798 ± 0.00064
313.15 K | 1290 ± 1.9 | 1.46651 ± 0.00064
318.15 K | 1286.1 ± 1.9 | 1.46502 ± 0.00064
323.15 K | 1282.1 ± 1.9 | 1.46355 ± 0.00064
328.15 K | 1278.2 ± 1.9 | 1.4621 ± 0.00064
333.15 K | 1274.2 ± 1.9 | 1.46063 ± 0.00064
338.15 K | 1270.3 ± 1.9 | 1.4592 ± 0.00063
343.15 K | 1266.4 ± 1.8 | 1.45776 ± 0.00064
348.15 K | 1262.5 ± 1.8 | 1.45628 ± 0.00063
353.15 K | 1258.6 ± 1.8 | 1.45489 ± 0.00063

CCC[N+]1(C)CCCC1.O=S(=O)(F)[N-]S(=O)(=O)F [1-methyl-1-propylpyrrolidinium bis(fluorosulfonyl)amide]
Details | mass density, [1] [kg/m3] | refractive index, [2]
283.15 K | 1350.3 ± 2.1 | 1.44659 ± 0.00063
288.15 K | 1346.2 ± 2.1 | 1.44522 ± 0.00063
293.15 K | 1342.1 ± 2.1 | 1.44385 ± 0.00063
298.15 K | 1338.1 ± 2.1 | 1.4425 ± 0.00063
303.15 K | 1334.1 ± 2.1 | 1.44114 ± 0.00063
308.15 K | 1330.1 ± 2.1 | 1.43977 ± 0.00063
313.15 K | 1326.1 ± 2 | 1.43846 ± 0.00063
318.15 K | 1322.2 ± 2 | 1.4371 ± 0.00063
323.15 K | 1318.2 ± 2 | 1.43577 ± 0.00062
328.15 K | 1314.3 ± 2 | 1.43446 ± 0.00062
333.15 K | 1310.4 ± 2 | 1.43312 ± 0.00062
338.15 K | 1306.6 ± 2 | 1.43182 ± 0.00062
343.15 K | 1302.7 ± 2 | 1.43052 ± 0.00062
348.15 K | 1298.9 ± 2 | 1.42919 ± 0.00062
353.15 K | 1295.1 ± 1.9 | 1.42792 ± 0.00062

From the NIST ThermoML archive (doi:10.1021/je201289w)
